Experimental data reported in patent publication US20130224798.

Molecular target: Toll-like Receptor 5 (TLR5) constitutively expressed by HEK293 cells, not stated, O60602 21-858
Test: cell-based or functional assay

STF2Δ.EIII+
TLR5 specific-activity against STF2.OVA (fold (against stf2.ova)): > 10 | TLR-5 EC50 (batch 044): 1.13 ng/mL | TLR-5 EC50 (batch 045): 4.34 ng/mL
